For 1 substance, IVTT Activity and Relative Activity (IVTT) results are on record in patent publication US20090221500.

The test system of this data set is elongation factor-2 (EF-2).

wild type DT382 (sequence left out) returned an IVTT Activity of 1 and a Relative Activity (IVTT) of 1.
